Reference: patent publication US9119853B2, “Sanglifehrin based compounds” (priority 2010, dated 2015)

Tested on: HCV genotype 1b I389luc-ubi-neo/NS3-3'/5.1 replicon in Huh5.2 cells
Format: cell-based, Hepatitis C Virus

SMILES: CC[C@H]1C[C@H](C)[C@@]2(NC1=O)O[C@@H](C[C@H](O)[C@@H](C)CC/C=C/C=C(\C)[C@@H]1C/C=C/C=C/[C@H](O)[C@H](C)[C@@H](O)[C@@H](CCC(C)=O)C(=O)N[C@@H](C(C)C)C(=O)N[C@@H](Cc3cccc(O)c3)C(=O)N3CCC[C@H](N3)C(=O)O1)[C@H](C)[C@H](O)[C@@H]2C [Sanglifehrin A, 5, Sanglifehrin A, reference compound]
- Selectivity index (CC50/EC50): 28.7

SMILES: CC(=O)CC[C@H]1C(=O)N[C@@H](C(C)C)C(=O)N[C@@H](Cc2cccc(O)c2)C(=O)N2CCC[C@H](N2)C(=O)O[C@H](/C(C)=C/CO)C/C=C/C=C/[C@H](O)[C@H](C)[C@H]1O [hydroxymacrocycle, 6, reference compound]
- Selectivity index (CC50/EC50): 9.9
